Tested on: K1 chloroquine and pyrimethamine-resistant P. falciparum strain
Assay: In vitro antiplasmodial evaluation (SYBR Green I)
Format: cell-based, Plasmodium falciparum
Conditions: SI = CC50 HepG2/EC50 PfK1
Procedure: For all molecules, the selectivity index was calculated as following SI = CC50/EC50.
It was maintained in continuous culture, as described previously by Trager and Jensen. Cultures were maintained in fresh A+ human erythrocytes at 2.5% hematocrit in complete medium (RPMI 1640 with 25 mM HEPES, 25 mM NaHCO3, 10% of A+ human serum) at 37 °C under reduced O2 atmosphere (gas mixture 10% O2, 5% CO2, and 85% N2). Parasitemia was maintained daily between 1 and 3%. The P. falciparum drug susceptibility test was carried out by comparing quantities of DNA in treated and control cultures of parasite in human erythrocytes according to an SYBR Green I fluorescence-based method using a 96-well fluorescence plate reader. Compounds, previously dissolved in DMSO (final concentration less than 0.5% v/v), were incubated in a total assay volume of 200 μL (RPMI, 2% hematocrit and 0.4% parasitemia) for 72 h in a humidified atmosphere (10% O2 and 5% CO2) at 37 °C, in 96-well flat bottom plates. Duplicate assays were performed for each sample. After incubation, plates were frozen at […] for 24 h. Then, the frozen plates were thawed for 1 h at 37 °C. […] Plates were incubated for 15 min at 37 °C and then read on a TECAN Infinite F-200 spectrophotometer with excitation and emission wavelengths at 485 and 535 nm, respectively.

Substance: 2-(Naphthalen-2-yloxy)-3-trichloromethylquinoxaline [3q]
- SI (selectivity index): 88.5

Substance: 2-(Naphthalen-1-yloxy)-3-trichloromethylquinoxaline [3r]
- SI (selectivity index): >78.1

— PMC8400257, “2-Phenoxy-3-Trichloromethylquinoxalines Are Antiplasmodial Derivatives with Activity against the Apicoplast of Plasmodium falciparum” (Pharmaceuticals, 2021)
